Laboratory results: patent publication US8748373B2, “Hepatitis B virus compositions and methods of use” (priority 2007, dated 2014)
“And” between values parts separate entries of the source, which are not always exact repeats. Identical values can stand only once.

Legend:
293T cells = assay: Transient expression and secretion of IA and preS proteins, immunoblot quantitation of media and cells; assay type: cell-based, human; details: for Secretion (%): protein detected in medium relative to total in medium and cells: 293T cells, 2 days after transient transfection, immunoblot; for Secretion (%) / Concentration in media: 2 days
[1] = Dimer formation of secreted IA, electrophoresis under non-reducing conditions; details: secreted protein
T-REx 293 cell line = assay: Induced expression and secretion of IA from stable T-REx 293 cell line; assay type: cell-based, human; details: 2 days after tetracycline induction
[2] = Transient transfection of 293T cells with 10 μg plasmid

## MAGWSSKPRKGMATNLSVPNPLGFFPDHQLD . . . HPQA [G2A, G13A]
293T cells
  Secretion (%): protein detected in medium relative to total in medium and cells: 71%

## MGGWSSKPRK (expressed as IA; 1-10 of HBV) [preS1 amino acids 1-10 expressed as IA]
293T cells
  Secretion (%): protein detected in medium relative to total in medium and cells: 4%

## MGGWSSKPRKGMGTNLSVPNPLGFFPDHQL [1-30]
293T cells
  Secretion (%): protein detected in medium relative to total in medium and cells: 75%

## MGGWSSKPRKGMGTQLSVPNPLGFFPDHQLD . . . HPQA [N15Q]
293T cells
  Secretion (%): protein detected in medium relative to total in medium and cells: 64%

## S1-IA: immunoadhesin: HBV preS1 domain (1-119, adw2) fused N terminally to Fc region of a rabbit IgG heavy chain
[1]
  Occurrence as dimers: 14%

## S1S2-IA: immunoadhesin: HBV preS1 plus preS2 domains fused to Fc region of a rabbit IgG heavy chain
[1]
  Occurrence as dimers: 14%
293T cells; Transient transfection of 293T cells with 0.16 μg plasmid (64-fold less)
  Secretion (%): > 80% and 83%
293T cells; Transient transfection of 293T cells with 0.16 μg plasmid (64-fold less), listed as S1S1-IA
  Secretion (%): > 80%
293T cells; Transient transfection of 293T cells with 0.16 μg plasmid
  Concentration in media: 26 nM
293T cells; [2]
  Concentration in media: 540 nM
  Secretion (%): 95%
T-REx 293 cell line
  Concentration in media: 320 nM
  Secretion (%): > 80% and 82%
T-REx 293 cell line; listed as S1S1-IA
  Secretion (%): > 80%

B1: IA without HBV sequences: Fc region of a rabbit IgG heavy chain without HBV preS sequences (protein)
chain: APSTCSKPTCPPPELLGGPSVFIFPPKPKDTLMISRTPEVTCVVVDVSQDDPEVQFTWYINNEQVRTARPPLREQQFNSTIRVVSTLPITHQDWLRGKEFKCKVHNKALPAPIEKTISKARGQPLEPKVYTMGPPREELSSRSVSLTCMINGFYPSDISVEWEKNGKAEDNYKTTPAVLDSDGSYFLYNKLSVPTSEWQRGDVFTCSVMHEALHNHYTQKSISRSPGK
293T cells
  Secretion (%): protein detected in medium relative to total in medium and cells: not secreted
